Compound potency records, mixed from different reports. Data source: NIAID ChemDB in PubChem.

Shared fields: whole-cell or culture tests; species: Mycobacterium tuberculosis

ECn is the concentration giving n% inhibition of infection, replication or growth. Rows are shuffled and stem from different studies. Percent inhibition refers to the dose given; in toxicity tests it is the harm to the cells. MIC bound: limit read from a one-dose screen. Blank or dashed fields: not listed here.

structure	setting	measure	strain or isolate	tested at	mutations	cells	read by	result
CN(C)c1ccc(/C=C2/C=Cc3ccccc32)c(F)c1		MIC bound	H37Rv				BACTEC	>12.5 µg/mL
CC(CNCCC(c1ccccc1)c1ccccc1)N[C@@H]1C[C@@H]2C[C@H]([C@H]1C)C2(C)C		MIC						50 µM
Cc1ccc2oc(=O)n(-c3ccccc3)c(=S)c2c1	14 d	MIC	My 331/88					1 µM
CC[C@H]1OC(=O)[C@H](C)[C@@H](O[C@H]2C[C@@](C)(OC)[C@@H](O)[C@H](C)O2)[C@H](C)[C@@H](O[C@@H]2O[C@H](C)C[C@H](N(C)C)[C@H]2O)[C@](C)(OC)C[C@@H](C)C(=O)[C@H](C)[C@@H](O)[C@]1(C)O		MIC	H37Rv					>8 µg/mL
COc1ccccc1NC(=O)CC(=O)N1N=C(C)C(N=Nc2ccc(I)cc2)C1=O		MIC bound	H37Rv				BACTEC	>12.8 µg/mL
COc1ccc(CCc2cc(OC)c3ccccc3n2)cc1OC		MIC	MT7					77 µg/mL
O=C1CC(c2ccccc2)Oc2ccc(I)cc21		inhibition	H37Rv	12.5 µg/mL				27%
CC1(C)OC2COC3OC(C)(C)OC3C2O1		MIC bound	H37Rv				BACTEC	>6.25 µg/mL
O=C(O)C(CO)c1ccccc1		MIC	H37Rv					>100 µg/mL
Nc1cccc(/C=C/C(=O)c2ccccc2O)c1		inhibition	H37Rv	12.5 µg/mL				11%
COc1ccc(Sc2ncnc3nc[nH]c23)cc1		inhibition	H37Rv	6.25 µg/mL				0%
CCCCC(CC)CN1CN(CC(CC)CCCC)CC(C)(NCCNC2CCCCC2)C1		MIC						12.5 µM
CCOC(=O)Nc1cc(NC(C)C(=O)c2ccc(O)cc2)c([N+](=O)[O-])c(N)n1		inhibition	H37Rv	12.5 µg/mL				0%
CN1CCN(C2=NS(=O)(=O)c3cc(Cl)ccc3N2)CC1		MIC bound	H37Rv				resazurin	>6.25 µg/mL
Clc1nc(Sc2ccccc2Cl)c2[nH]cnc2n1		inhibition	H37Rv	6.25 µg/mL				0%
CC(C)C1C(=O)N(c2c(F)c(F)c(F)c(F)c2F)C(=S)N1CCS(=O)c1ccccc1		inhibition	H37Rv	12.5 µg/mL			BACTEC	9%
CO[C@H]1/C=C/O[C@@]2(C)Oc3c(C)c(O)c4c(O)c(c5c(c4c3C2=O)NC2(CCN(CC(C)C)CC2)N=5)=NC(=O)/C(C)=C\C=C\[C@H](C)[C@H](O)[C@@H](C)[C@@H](O)[C@@H](C)[C@H](OC(C)=O)[C@@H]1C		MIC	Isolate 880902 rifampicin-resistant					16 µg/mL
CCOC(=O)Nc1cc2c(c(N)n1)N=C(c1ccccc1)C(c1ccccc1)O2		EC50	H37Rv					<12.5 µg/mL
COc1ccccc1N1C(=O)/C(=N\OC(=O)c2c(-c3c(Cl)cccc3Cl)noc2C)SC1=S		MIC bound	H37Rv				BACTEC	>12.8 µg/mL
CC1(C)[C@H]2CC[C@@H](CNCCN3CCc4c([nH]c5ccccc45)C3)[C@@H]1C2		MIC						50 µM
COc1ccc2oc(=S)n(-c3ccc(C)cc3)c(=S)c2c1	21 d	MIC	My 331/88					16 µM
CC1(C)OCC([C@H]2O[C@@H]3OC(C)(C)O[C@@H]3/C2=N/NC(=O)c2cc3cc(OCc4ccccc4)ccc3[nH]2)O1		MIC	H37Rv			VERO	BACTEC	12.5 µg/mL
CC1(C)CC2CC(C)(CN2CCNCC(c2ccccc2)c2ccccc2)C1		MIC						37.5 µM
CCOC(=O)C1CC(=O)C2/C(=C(\O)c3ccccc3)C=C([N+](=O)[O-])C1C2[N+](=O)[O-]		inhibition	H37Rv	6.25 µg/mL			resazurin	2%
CC1CCCC(NCCNC(c2ccccc2)c2ccccc2)C1C		MIC						50 µM
O=C(/C=C/c1ccccc1)c1ccccc1O		EC50						<12.5 µg/mL
Cc1ccccc1CSc1ncnc2nc[nH]c12		inhibition	H37Rv	6.25 µg/mL				0%
CC(=O)Nc1ccc2nc(C)ccc2c1		MIC	H37Rv					>100 µg/mL
CO[C@H]1/C=C/O[C@@]2(C)Oc3c(C)c(O)c4c(O)c(c(/C=N/N5CCN(C/C=C/c6ccccc6)CC5)c(O)c4c3C2=O)NC(=O)/C(C)=C\C=C\[C@H](C)[C@H](O)[C@@H](C)[C@@H](O)[C@@H](C)[C@H](OC(C)=O)[C@@H]1C		MIC	2831 (rifampin-sensitive)					0.05 µg/mL
Cc1cc(C)c(C(=O)[O-])cc1C.[Na+]		MIC	H37Rv					>100 µg/mL
NNC(=O)c1ccncc1		MIC	Clinical isolate 71 A		INH RIF resistant		resazurin	6.25 µg/mL
NC(=O)c1cnccn1		MIC	Isolate 9155 monodrug-resistant					>300 µg/mL
c1ccc(C(NCCNC2CCCCCCC2)c2ccccc2)cc1		MIC						12.5 µM
Cc1ccc(CNCCNC(C)Cc2c[nH]c3ccccc23)cc1		MIC						50 µM
O=C(CCCC(=O)Nc1ccc2[nH]c3ccccc3c(=O)c2c1)Nc1ccc2[nH]c3ccccc3c(=O)c2c1		MIC bound	H37Rv				BACTEC	>12.5 µg/mL
CC[C@@H](CO)NCCN[C@@H](CC)CO		MIC	MDR23				broth dilution / resazurin	128 µg/mL
COc1ccc(C2CC(=O)c3cc(F)ccc3O2)cc1		EC50						>12.5 µg/mL
Nc1ccc(Cc2ccc(N)cc2N)c(N)c1		MIC	H37Rv					>100 µg/mL
COc1ccc(OC)c(CCNCCNCC(c2ccccc2)c2ccccc2)c1		MIC						6.25 µM
CO[C@H]1/C=C/O[C@@]2(C)Oc3c(C)c(O)c4c(=O)c(c5oc6cc(N7CCN(CC(C)C)CC7)cc(=O)c6nc5c4c3=C2O)NC(=O)/C(C)=C\C=C\[C@H](C)[C@H](O)[C@@H](C)[C@@H](O)[C@@H](C)[C@H](OC(C)=O)[C@@H]1C		MBC	2230 (rifampin-resistant)					0.2 µg/mL
C[C@@H]1CCC2(NC1)O[C@H]1C[C@H]3[C@@H]4CC=C5C[C@@H](O[C@@H]6O[C@@H](CO)[C@H](O[C@@H]7O[C@H](C)[C@@H](O)[C@H](O)[C@H]7O)[C@@H](O)[C@H]6O)CC[C@]5(C)[C@H]4CC[C@]3(C)[C@H]1[C@@H]2C		MIC	H37Rv				BACTEC	≥12.5 µg/mL
CN[C@@H]1[C@H](O[C@H]2[C@H](O[C@H]3[C@H](O)[C@@H](O)[C@H](N=C(N)N)[C@@H](O)[C@@H]3N=C(N)N)O[C@@H](C)[C@]2(O)C=O)O[C@@H](CO)[C@H](O)[C@H]1O		MIC	TN4800 (W33)					>2 µg/mL
O=C(O)COc1ccc(Cl)cc1Cl		MIC	H37Rv					>100 µg/mL
CNC(=O)c1ccc[n+](C2OC(COC(=O)c3ccccc3)C(OC(=O)c3ccccc3)C2OC(=O)c2ccccc2)c1.[Br-]		MIC	H37Rv				BACTEC	≥12.5 µg/mL
COc1cc(C(=O)O)ccc1O		MIC	H37Rv					>100 µg/mL
O=C1CC(c2cccc(Cl)c2)Oc2ccccc21		EC50	H37Rv					>12.5 µg/mL
O=C1OC2CCCCC1CC2		MIC bound	H37Rv				BACTEC	>12.5 µg/mL
NC(CCCCCCC(N)C(=O)O)C(=O)O		MIC	H37Rv					>100 µg/mL
CCCCCc1cc(OC)c2ccccc2n1		MIC	MT1					21 µg/mL
CC1(C)[C@H]2CC[C@@H](CNCCNCCCCc3ccccc3)[C@@H]1C2		MIC						50 µM
COc1cc(NCCCNc2c3ccc(Cl)cc3nc3ccc(OC)cc23)c2ncccc2c1		MIC	H37Rv					25 µg/mL
CCOC(=O)Nc1cc(N)c2c(n1)OCC(c1cccc(OC)c1)=N2		inhibition	H37Rv	12.5 µg/mL				0%
COC(=O)CCCCCCCCC(=O)Nc1ccc(I)cc1		MIC	H37Rv					>100 µg/mL
C[C@H]1C[C@H](N)CN1c1cc2c(cc1F)c(=O)c(C(=O)O)cn2-c1ccc(F)cc1F		MBC	ATCC 35823					8 µg/mL
NNC(=O)c1ccncc1		MIC	H37Rv					0.1 µg/mL
NC(=S)NNC(=O)c1ccc([N+](=O)[O-])cc1		inhibition	H37Rv	12.5 µg/mL			BACTEC	97%
C[C@H]1COc2c(N3CCN(C)CC3)c(F)cc3c(=O)c(C(=O)O)cn1c23		MIC	6S					0.5 µg/mL
CCN(CC)c1ccc(Nc2c3ccc(Cl)cc3nc3ccc(OC)cc23)cc1		MIC	H37Rv					>100 µg/mL
CCCCN1CCN(CCCC)C1=O		MIC bound	H37Rv				BACTEC	>12.5 µg/mL
CCCCNC(=O)Oc1ccc(C2=Nc3c(cc(NC(=O)OCC)nc3N)N[C@@H]2C)cc1		EC50	H37Rv					>12.5 µg/mL
c1ccc(-c2ccccc2OCCOc2ccccc2-c2ccccc2)cc1		MIC	H37Rv					>100 µg/mL
CC1=NN(C(=O)c2ccncc2)C(=O)C1N=Nc1ccc2ccccc2c1		MIC	H37Rv				BACTEC	≥12.8 µg/mL
CC(=O)Nc1cccc(/C=C/C(=O)c2ccccc2O)c1		EC50	H37Rv					>12.5 µg/mL
O=C1OC(c2ccccc2)=N/C1=C\c1ccc(Cl)cc1Cl		MIC bound	H37Rv				BACTEC	>12.5 µg/mL
O=C(OCc1ccccc1)c1ccccc1		MIC	H37Rv					>100 µg/mL
COc1ccc2oc(=O)n(-c3ccc(C(F)(F)F)cc3)c(=S)c2c1	21 d	MIC	My 331/88					32 µM
CC(CNCCNC(C)(C)CC(C)(C)C)c1ccccc1		MIC						50 µM
CC1COc2c(N3CCN(C)CC3)c(F)cc3c(=O)c(C(=O)O)cn1c23		MIC	ATCC 35822					1 µg/mL
Nc1ccc(/C=C/c2ccc(N)c(S(=O)(=O)O)c2)cc1S(=O)(=O)O		MIC	H37Rv					>100 µg/mL
Fc1ccc2oc(=S)n(-c3ccc(Cl)cc3)c(=S)c2c1	21 d	MIC	My 331/88					2 µM
Cc1c2c(Cc3ccccc3)nccc2c(C)c2c1c1ccccc1n2Cc1ccccc1		MIC bound	H37Rv				resazurin	>6.25 µg/mL
O=C(O)CC1CCCCC1		MIC	H37Rv					>100 µg/mL
O=C1c2ccccc2-n2c1nc1ccc([N+](=O)[O-])cc1c2=O		MIC	H37Rv				BACTEC	12.5 µg/mL
CCOC(=O)Nc1cc(NC(c2ccccc2)c2ccccc2)c2[nH]c(=O)[nH]c2n1		EC50	H37Rv					>12.5 µg/mL
c1ccc(CSc2ccncc2)cc1		inhibition	H37Rv	6.25 µg/mL				22%
C[C@H]1COc2c(N3CCN(C)CC3)c(F)cc3c(=O)c(C(=O)O)cn1c23		MBC	ATCC 35826					0.5 µg/mL
Cc1ccc(S(=O)(=O)N2CCNCCN(S(=O)(=O)c3ccc(C)cc3)CCN(S(=O)(=O)c3ccc(C)cc3)CC2)cc1		MIC bound	H37Rv				resazurin	>6.25 µg/mL
CC(C)(CO)NCCNCCN1CCOCC1		MIC						50 µM
CNC(=S)SSC(=S)NCCNC(=S)SSC(=S)NC		MIC bound	H37Rv				resazurin	>6.25 µg/mL
O=[N+]([O-])c1ccc(Sc2ccc(Cl)cc2)c([N+](=O)[O-])c1		MIC	H37Rv					>100 µg/mL
C[C@H](NCCNCc1ccc(C(F)(F)F)cc1)C1CCCCC1		MIC						50 µM
COc1cc(Cc2ccc(N)c(OC)c2)ccc1N		MIC	H37Rv					100 µg/mL
Cc1ccc(CSc2ccccn2)cc1		inhibition	H37Rv	6.25 µg/mL				0%
CC(C)=CCC/C(C)=C/CNCCNCCc1ccccc1Cl		MIC						50 µM
COc1cc(OC)c2c(c1)OC(c1ccc(O)cc1)CC2=O		EC50	H37Rv					>12.5 µg/mL
O=C(O)C(Br)(CCC1CCCCC1)C(=O)O		MIC	H37Rv					100 µg/mL
NC1CCN(c2nc3c(cc2F)c(=O)c(C(=O)O)cn3-c2ccc(F)cc2F)C1		MIC	ATCC 35828					8 µg/mL
OC1(CCC2(O)CCCCC2)CCCCC1		MIC	H37Rv					>100 µg/mL
O=C1CC(c2ccccc2)Oc2cc(Cl)ccc21		EC50						>12.5 µg/mL
COc1cccc(Sc2ncccn2)c1		inhibition	H37Rv	6.25 µg/mL				0%
Nc1ccc(C(=O)NCCO)cc1		MIC	H37Rv					>100 µg/mL

A second listing of 7 rows from above:

structure	setting	measure	strain or isolate	tested at	mutations	cells	read by	result
COc1cc(NCCCNc2c3ccc(Cl)cc3nc3ccc(OC)cc23)c2ncccc2c1		MIC	H37Rv					25 µg/mL
CC(=O)Nc1cccc(/C=C/C(=O)c2ccccc2O)c1		EC50	H37Rv					>12.5 µg/mL
CCCCNC(=O)Oc1ccc(C2=Nc3c(cc(NC(=O)OCC)nc3N)N[C@@H]2C)cc1		EC50	H37Rv					>12.5 µg/mL
Cc1ccccc1CSc1ncnc2nc[nH]c12		inhibition	H37Rv	6.25 µg/mL				0%
CC[C@H]1OC(=O)[C@H](C)[C@@H](O[C@H]2C[C@@](C)(OC)[C@@H](O)[C@H](C)O2)[C@H](C)[C@@H](O[C@@H]2O[C@H](C)C[C@H](N(C)C)[C@H]2O)[C@](C)(OC)C[C@@H](C)C(=O)[C@H](C)[C@@H](O)[C@]1(C)O		MIC	H37Rv					>8 µg/mL
CC(CNCCC(c1ccccc1)c1ccccc1)N[C@@H]1C[C@@H]2C[C@H]([C@H]1C)C2(C)C		MIC						50 µM
c1ccc(CSc2ccncc2)cc1		inhibition	H37Rv	6.25 µg/mL				22%